Test results published in the supplement of paper PMC9931576.
Residue numbers refer to the chain shown, from its start. Human monoclonal antibodies against the spike receptor-binding domain (heavy:light variable regions). IC50 against pseudoviruses bearing the spike of naturally observed variants; lower = stronger; >10 µg/ml means not reached at the top dose. No active / inactive call. The stated detection limit is 0.0005 µg/ml; values near or below 0.001 µg/ml lie at the floor of the assay.

B1: BD56-798 (protein)
chain 1: QVQLQESGPGLVKPSETLSLTCTVSGGPISSHYWNWIRQPPGKGLEWIGYIYYSGSTNYNPSLKSRVTISVDASKNQVSLKLISVTAADTAVYYCARGGILGDYFDYWGQGTLVTGSS
chain 2: DIVMTQSPDSLAVSLGERATINCKSSQSVLYSSNNENYLAWYQQKPGQSPKLLIYWASTRESGVPDRFSGSGSGTDFTLTISSLQAEDVAVYYCQQYYSPPLTFGGGTKVEIK
B2: BD56-864 (protein)
chain 1: QVQLQESGPGLVKPSETLSLTCTVSGDSISGYYWSWIRQPPGKGLEWIGYIYYTGSTDYNPSLKSRVTISVDTSKNQFSLMLSSVTAADTAVYYCARGGIGGDSFDYWGQGTLVTVSS
chain 2: B1 chain 2 with E36K, S49P, S82T, P100T, G106Q
B3: BD56-874 (protein)
chain 1: QVRLQESGPGLVKPSETLSLTCTVSGDSISGSYWSWIRQPPGKGLEWIGETYFSGSISERTNDNRPLKSRVTILADTSKNEFSLKLSSVTAADTAVYYCARDLSGWGLPPLWGQGTLVIVSS
chain 2: DIQMTQSPSSLSASVGDRVTITCRASQGINTYLNWYQQKPGEAPKLLIYAASSLQSGVPSRFSGSGSGTDFTLTISSLQREDFAAYYCQQSYSTPLTFGGGTKVEIK
B4: BD56-819 (protein)
chain 1: EVQLVESGGGLVKPGGSLRLSCAASGFTFSSYTMNWVRQAPGKGLEWVSSISYSSNYIYYADSVKGRFTISRDNAKNSLYLQMNSLRAEDTAVYYCARGRPPLITLIPLEGYDAFDIWGQGTMVTVSS
chain 2: QPVLTQPPSASASLGASVTLTCTLSSGYSNYKVDWYQQRPGKGPRFVMRVGTGGIVGSKGDGIPDRFSVLGSGLTRYLTINNIQEEDESDYHCGADHGSGSNFVYLFGGGTKLTVL
B5: BD56-862 (protein)
chain 1: EVQLLESGGGLVQPGGSLRLSCTASGFTFSSYAMSWVRQAPGKGLEWVSVIYGGGSSTYYVDSVKGRFTISRDNSKNTLYLQMSSLRAEDTAVYYCAIEWEPLGHYYYYMDVWGKGTTVTVSS
chain 2: QSVLTQPPSVSGAPGQRVTISCTGSSSNIGAGYDLHWYQQLPGTAPKLLIYGNSNRPSGVPDRFSGSKSGTSASLAITGLQAEDEADYYCQSYDSSLSGWVFGGGTKLTVL

How the values were obtained:
Experiment in all cases: pseudovirus neutralization IC50; higher = weaker neutralization
[1] = target: SARS-CoV-2 Omicron BA.1 spike pseudovirus
Experimental: (§1)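 Single-round VSV luciferase pseudovirus mixed with antibody dilutions for 1 h and put on Huh-7 cells for about a day; IC50 from the dose curve.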

[2] = target: SARS-CoV-2 Omicron BA.2 spike pseudovirus
Experimental: as §1

[3] = target: SARS-CoV-2 Omicron BA.2.75 spike pseudovirus
Experimental: as §1

[4] = target: SARS-CoV-2 Omicron BA.2.75.2 spike pseudovirus
Experimental: as §1

[5] = target: SARS-CoV-2 Omicron BA.5 spike pseudovirus
Experimental: as §1

[6] = target: SARS-CoV-2 Omicron BM.1.1.1 spike pseudovirus
Experimental: as §1

[7] = target: SARS-CoV-2 Omicron BQ.1.1 spike pseudovirus
Experimental: as §1

[8] = target: SARS-CoV-2 Omicron BR.2 spike pseudovirus
Experimental: as §1

[9] = target: SARS-CoV-2 Omicron CA.1 spike pseudovirus
Experimental: as §1

[10] = target: SARS-CoV-2 Omicron XBB spike pseudovirus
Experimental: as §1

[11] = target: SARS-CoV-2 early D614G spike pseudovirus
Experimental: as §1

Binder | pseudovirus neutralization IC50 [1] [µg/mL] | pseudovirus neutralization IC50 [2] [µg/mL] | pseudovirus neutralization IC50 [3] [µg/mL] | pseudovirus neutralization IC50 [4] [µg/mL] | pseudovirus neutralization IC50 [5] [µg/mL] | pseudovirus neutralization IC50 [6] [µg/mL] | pseudovirus neutralization IC50 [7] [µg/mL] | pseudovirus neutralization IC50 [8] [µg/mL] | pseudovirus neutralization IC50 [9] [µg/mL] | pseudovirus neutralization IC50 [10] [µg/mL] | pseudovirus neutralization IC50 [11] [µg/mL]
B1 | 0.0015 | > 10 | > 10 | > 10 | > 10 | > 10 | > 10 | > 10 | > 10 | > 10 | > 10
B2 | 0.00379 | > 10 | > 10 | > 10 | > 10 | > 10 | > 10 | > 10 | > 10 | > 10 | > 10
B3 | 0.423 | > 10 | > 10 | > 10 | > 10 | > 10 | > 10 | > 10 | > 10 | > 10 | > 10
B4 | 0.00171 | 0.00115 | 0.00301 | > 10 | > 10 | > 10 | > 10 | > 10 | > 10 | > 10 | > 10
B5 | 0.047 | > 10 | > 10 | > 10 | > 10 | > 10 | > 10 | > 10 | > 10 | > 10 | > 10
